According to paper PMC9701186 (Nature Communications, 2022):

How the values were obtained:
Assay in all cases: BLI
[1] = molecular target: CCHFV strain IbAr10200 GP38 (Crimean-Congo hemorrhagic fever virus …, UniProt Q8JSZ3)
[2] = molecular target: T1, CCHFV strain Turkey-2004 GP38 (CCHFV, strain Turkey-2004, strain)
T1 chain: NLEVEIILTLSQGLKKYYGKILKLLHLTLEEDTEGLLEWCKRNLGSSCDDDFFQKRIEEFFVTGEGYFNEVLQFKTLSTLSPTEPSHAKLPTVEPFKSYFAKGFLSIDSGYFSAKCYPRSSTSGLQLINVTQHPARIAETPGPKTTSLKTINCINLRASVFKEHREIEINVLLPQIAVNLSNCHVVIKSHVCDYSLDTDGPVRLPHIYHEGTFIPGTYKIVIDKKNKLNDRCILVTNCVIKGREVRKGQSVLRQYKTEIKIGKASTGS

CCHFV IbAr10200 GP38 = CCHFV IbAr10200 GP38 (Crimean-Congo hemorrhagic fever virus …, UniProt Q8JSZ3)
CCHFV Turkey-2004 GP38 = molecular target: T2, CCHFV Turkey-2004 GP38 (CCHFV, strain Turkey-2004, strain)
T2 chain: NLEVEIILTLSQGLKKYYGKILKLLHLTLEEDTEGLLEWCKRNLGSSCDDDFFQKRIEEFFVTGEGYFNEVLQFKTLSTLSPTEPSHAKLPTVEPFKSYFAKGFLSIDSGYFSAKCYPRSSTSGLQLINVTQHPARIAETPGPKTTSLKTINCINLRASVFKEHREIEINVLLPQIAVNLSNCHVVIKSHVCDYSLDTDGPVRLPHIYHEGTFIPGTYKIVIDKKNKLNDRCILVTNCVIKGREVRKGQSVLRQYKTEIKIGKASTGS

[3] = molecular target: T3, Turkey2004 GP38-his/strep (CCHFV, strain Turkey-2004, strain)
T3 chain: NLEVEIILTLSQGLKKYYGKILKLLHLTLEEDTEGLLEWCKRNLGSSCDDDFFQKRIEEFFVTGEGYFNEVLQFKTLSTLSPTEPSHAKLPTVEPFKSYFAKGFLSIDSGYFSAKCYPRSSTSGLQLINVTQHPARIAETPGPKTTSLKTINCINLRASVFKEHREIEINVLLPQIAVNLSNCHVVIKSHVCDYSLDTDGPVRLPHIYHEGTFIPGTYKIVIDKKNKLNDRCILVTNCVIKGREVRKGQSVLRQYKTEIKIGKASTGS

B1: human chimeric 13G8 mAb (c13G8) (antibody, V domains shown)
VH: DVQLQQSGPGLVAPSQSLSITCTVSGFSLTNYGIHWVRQPPGKGLEWLGVIWAGGYTKYNSALMSRLSMSKDNSKSQVFLKMNSLQTDDTAMYYCARDEVRRDYYAMDHWGQGTTVTVSS
VL: DIQMTQSPAILSASPGEKVTMTCWASSGVSYMHWYQQKPGSSPKPWIFATSNLASGVPARFSGSGSGTSYSLTISRVEAEDAATYYCQQWSFNPLTFGAGTKLEIK
notes: copies: 2 + 2
Question: How did the Kd [1] turn out when B1 was run?
Answer: 0.427 nM

Question: And the Kd [2]?
Answer: 0.523 nM

B2: CC5-17 mAb (antibody, V domains shown)
VH: EVQLVQSGAEVKKPGESLRISCKGSGYSFTSYWIGWVRQMPGKGLEWMGIIYPGDSDTRYSPSFQGQVTISADKSISTAYLQWTSLKASDTAMYYCARQLGGSSFGNYYDSGSYYTAAYWGQGTLVTVSS
VL: DIQMTQSPSSLSASVGDRVTITCRASQSINNYLNWYQQKPGKAPKLLIYAASTLQSGVPSRFSGSGSGTDFTLTISSLQPEDFASYYCQQSYRGTFGQGTKVEFK
notes: copies: 2 + 2
Question: Which results are given for B2?
Answer: binding result [1]: binds; binding result [2]: binds

B3: CC5-17 mAb (antibody, V domains shown)
VH: EVQLVQSGAEVKKPGESLRISCKGSGYSFTSYWIGWVRQMPGKGLEWMGIIYPGDSDTRYSPSFQGQVTISADKSISTAYLQWTSLKASDTAMYYCARQLGGSSFGNYYDSGSYYTAAYWGQGTLVTVSS
VL: DIQMTQSPSSLSASVGDRVTITCRASQSINNYLNWYQQKPGKAPKLLIYAASTLQSGVPSRFSGSGSGTDFTLTISSLQPEDFASYYCQQSYRGTFGQGTKVEFK
Question: Does B3 bind (CCHFV IbAr10200 GP38)?
Answer: binds

Question: Does B3 bind (CCHFV Turkey-2004 GP38)?
Answer: binds

Question: Does B3 bind [3]?
Answer: binds
